Experimental findings from publication PMC7587979 (Molecules, 2020) are described below.

The test system of this assay is human primary fibroblasts (cell line AB943). Kind of assay: Cytotoxicity evaluation (resazurin) and selectivity index. The assay is classed as cell-based. The conditions noted are these: SI = IC50 (AB943)/IC50 (P.f. FcB1). On the technique in general: Resazurin is reduced to fluorescent resorufin, in cell work by metabolically active cells.

As to `CCN(CC)CCCC(C)Nc1ccnc2cc(Cl)ccc12` (stereo not shown) [CQ, Chloroquine, reference compound], the SI was found to be 347.
